{
  "source": "patent US9211260B2",
  "about": "“Methods of reducing the effects of exposure to a mustard compound by administering RLIP76” (dated 2015)",
  "tested_on": "C57bl/6 mice exposed to melphalan",
  "assay": "Survival of mice after melphalan 25.2 mg/kg (Study Design B)",
  "conditions": "melphalan IP, untreated group",
  "data": [
    {"compound": "N[C@@H](Cc1ccc(N(CCCl)CCCl)cc1)C(=O)O", "values": [
      {"measurement": "LD100/15", "result": 25.2, "unit": "mg/kg"}
    ]}
  ]
}
